Test results taken from patent US5670155A.

Key:
[1] = tested on: Sup T1 target cells with H9/IIIB infected cells; assay: Inhibition of syncytium formation; settings: 3 day incubation; compared with soluble CD4 and CD4 hexapeptide residues 40-45, FIG. 6; tested form: TFA
Protocol: Sup T1 cells (see Weiner et al., Pathobiology: 4:1-20 (1991)) were used as target cells for infection. Dilutions (1:2) of soluble CD4, CD4 mimetic, or CD4 peptide were made in 96 well plates in RPMI 1640 media containing 10% fetal calf serum. H9/IIIB infected cells were then plated at a density of approximately 10^4 cells per well. Sup T1 target cells were then added (5×10^5 per well) and syncytium formation was qualitatively and quantitatively determined after a 3 day incubation period. The results using soluble CD4, the reverse turn mimetic shown in FIG. 5, or the CD4 hexapeptide comprising residues 40-45 are shown in FIG. 6. The number of syncytia per well counted on visual inspection was plotted against the concentration of CD4, mimetic, or peptide added.

[2] = target: gp120 (Human immunodeficiency virus type 1 group M subtype B, UniProt P03375); settings: tested form: TFA

For `CC(C)C[C@H](NC(=O)[C@H](Cc1ccccc1)N1NC(=O)[C@H]([C@@H](N)CO)CCC(=O)N[C@@H](CO)C1=O)C(=O)N[C@H](C(=O)NCc1ccccc1)C(C)O` (some centres unmarked), the “Inhibition of syncytium formation” value [1] was “superior inhibition of syncytium formation” and the IC50 [2] was 800 nM.
